Structure probing of HIV-1 leader RNA with DMS

Values reported by Ye et al. 2022 (doi:10.1038/s41594-022-00746-2).

The 5' region of HIV-1 NL4-3 RNA (positions 1-437):
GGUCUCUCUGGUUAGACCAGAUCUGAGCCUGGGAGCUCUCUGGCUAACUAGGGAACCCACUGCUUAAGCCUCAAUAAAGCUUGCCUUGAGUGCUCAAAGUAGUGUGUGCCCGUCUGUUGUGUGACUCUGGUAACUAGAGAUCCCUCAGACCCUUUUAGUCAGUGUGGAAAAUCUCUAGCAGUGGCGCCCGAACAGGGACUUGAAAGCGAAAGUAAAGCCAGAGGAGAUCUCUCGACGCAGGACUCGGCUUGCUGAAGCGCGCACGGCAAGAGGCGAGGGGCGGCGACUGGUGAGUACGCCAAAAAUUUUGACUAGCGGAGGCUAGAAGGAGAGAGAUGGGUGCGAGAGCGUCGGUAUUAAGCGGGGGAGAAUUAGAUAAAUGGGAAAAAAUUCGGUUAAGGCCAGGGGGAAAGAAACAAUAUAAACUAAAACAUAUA

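Mutant RNA libraries with 1G, 2G or 3G starts, with or without cap, were folded at 37 °C for 30 min. High salt was 300 mM KCl and 5 mM MgCl2, low salt 40 mM KCl and 0.1 mM MgCl2; monomer and dimer were parted on a native gel. Each band was probed in the gel with DMS (170 mM, 15 min, 37 °C), with ethanol as control, and sequenced.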

Values are winsor-normalised DMS reactivities of A and C; higher means more reactive, usually unpaired.
One numbering serves 1G, 2G and 3G.
A position is written with its base.

| position | domain | 2G uncapped low-salt dimer | 2G uncapped low-salt monomer |
|---|---|---|---|
| A101 | PolyA | 0.15 | 0.19 |
| C109 | U5 | 0.21 | 0.13 |
| C110 | U5 | 0.15 | 0.15 |
| C111 | U5 | 0.22 | 0.28 |
| C114 | none | 0.26 | 0.20 |
| A124 | none | 0.95 | 1.17 |
| C125 | PAS | 0.08 | 0.06 |
| C127 | PAS | 0.04 | 0.03 |
| A132 | PBS | 0.51 | 0.54 |
| A133 | PBS | 1.43 | 1.50 |
| C134 | PBS | 0.16 | 0.14 |
| A136 | PBS | 0.10 | 0.10 |
| A138 | PBS | 0.10 | 0.14 |
| A140 | PBS | 0.33 | 0.42 |
| C142 | PBS | 0.07 | 0.07 |
| C143 | PBS | 0.04 | 0.03 |
| C144 | PBS | 0.04 | 0.03 |
| C146 | PBS | 0.12 | 0.12 |
| A147 | PBS | 0.46 | 0.43 |
| A149 | PBS | 0.07 | 0.12 |
| C150 | PBS | 0.04 | 0.08 |
| C151 | PBS | 0.70 | 0.79 |
| C152 | PBS | 0.87 | 0.81 |
| A157 | PBS | 0.96 | 0.89 |
| C160 | PBS | 0.05 | 0.04 |
| A161 | PBS | 0.48 | 0.45 |
| A168 | PBS | 0.47 | 0.45 |
| A169 | PBS | 0.75 | 0.70 |
| A170 | PBS | 0.49 | 0.53 |
| A171 | PBS | 0.47 | 0.45 |
| C173 | PBS | 0.04 | 0.03 |
| C175 | PBS | 0.04 | 0.03 |
| A177 | PBS | 0.25 | 0.24 |
| C179 | PBS | 0.84 | 0.78 |
| A180 | PBS | 0.60 | 0.56 |
| C185 | PBS | 0.47 | 0.41 |
| C187 | PBS | 0.04 | 0.03 |
| C188 | PBS | 0.08 | 0.06 |
| C189 | PBS | 0.13 | 0.08 |
| A191 | PBS | 0.39 | 0.40 |
| A192 | PBS | 0.75 | 0.79 |
| C193 | PBS | 0.81 | 0.81 |
| A194 | PBS | 0.93 | 1.02 |
| A198 | PBS | 0.59 | 0.57 |
| C199 | PBS | 0.50 | 0.40 |
| A203 | PBS | 0.50 | 0.49 |
| A204 | PBS | 0.72 | 0.69 |
| A205 | PBS | 0.35 | 0.34 |
| C207 | PBS | 0.63 | 0.42 |
| A209 | PBS | 0.40 | 0.43 |
| A210 | PBS | 0.50 | 0.54 |
| A211 | PBS | 0.53 | 0.38 |
| A214 | PBS | 0.29 | 0.26 |
| A215 | PBS | 0.64 | 0.51 |
| A216 | PBS | 0.70 | 0.55 |
| C218 | antiPAS | 0.06 | 0.03 |
| C219 | antiPAS | 0.06 | 0.03 |
| A220 | antiPAS | 0.23 | 0.33 |
| A222 | antiPAS | 0.31 | 0.26 |
| A225 | none | 0.85 | 0.76 |
| A227 | CU | 0.22 | 0.30 |
| C229 | CU | 0.14 | 0.27 |
| C231 | CU | 0.12 | 0.18 |
| C233 | CU | 0.17 | 0.30 |
| A235 | none | 0.76 | 0.62 |
| C236 | none | 0.48 | 0.48 |
| C238 | none | 0.50 | 0.72 |
| A239 | none | 0.78 | 0.57 |
| A242 | none | 1.06 | 0.83 |
| C243 | SL1 | 0.04 | 0.05 |
| C245 | SL1 | 0.07 | 0.27 |
| C248 | SL1 | 0.04 | 0.05 |
| C252 | SL1 | 0.06 | 0.23 |
| A255 | SL1 | 0.48 | 0.49 |
| A256 | SL1 | 1.08 | 0.83 |
| C258 | SL1 | 0.26 | 0.31 |
| C260 | SL1 | 0.39 | 0.42 |
| C262 | SL1 | 0.25 | 0.36 |
| A263 | SL1 | 0.84 | 0.22 |

The opening 5 entries, copied out:

| position | domain | 2G uncapped low-salt dimer | 2G uncapped low-salt monomer |
|---|---|---|---|
| A101 | PolyA | 0.15 | 0.19 |
| C109 | U5 | 0.21 | 0.13 |
| C110 | U5 | 0.15 | 0.15 |
| C111 | U5 | 0.22 | 0.28 |
| C114 | none | 0.26 | 0.20 |